According to patent publication US7022736B2, “Enzyme inhibitors” (Istituto Di Ricerche Di Biologia Molecolare P Angeletti SpA, priority 1998, dated 2006):
Like-named read-outs stand apart in the source and are kept apart here.

By UniProt entry, the sequences of proteins in these tests, tags left out. Residues count along the entry.
UniProt P26663, 2420-3010 limits assumed: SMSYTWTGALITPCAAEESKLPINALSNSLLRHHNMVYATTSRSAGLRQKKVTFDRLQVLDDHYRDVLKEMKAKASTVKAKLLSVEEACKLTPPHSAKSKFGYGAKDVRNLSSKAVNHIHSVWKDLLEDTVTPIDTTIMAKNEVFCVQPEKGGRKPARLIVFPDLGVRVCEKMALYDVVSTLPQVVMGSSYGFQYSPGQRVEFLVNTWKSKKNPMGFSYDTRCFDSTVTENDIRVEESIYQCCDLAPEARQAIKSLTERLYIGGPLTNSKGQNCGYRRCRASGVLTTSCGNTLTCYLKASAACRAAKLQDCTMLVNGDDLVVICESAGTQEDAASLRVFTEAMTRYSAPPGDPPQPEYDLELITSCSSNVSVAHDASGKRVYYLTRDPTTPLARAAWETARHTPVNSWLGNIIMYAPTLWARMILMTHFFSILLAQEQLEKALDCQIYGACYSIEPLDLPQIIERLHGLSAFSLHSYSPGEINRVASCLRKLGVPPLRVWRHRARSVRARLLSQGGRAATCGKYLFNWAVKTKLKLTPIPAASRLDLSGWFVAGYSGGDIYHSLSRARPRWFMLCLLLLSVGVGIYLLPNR

How the values were obtained:
[1] = target: HCV RdRp (NS5B RNA-dependent RNA polymerase) (Hepatitis C virus genotype 1b, UniProt P26663); assay: Inhibition of hepatitis C virus RdRp (poly(A)/oligo(U), [3H]UTP incorporation); type: biochemical
Method: In initial tests, the compounds were tested to see if they were effective as inhibitors of the RNA-dependent RNA polymerase (RdRp) of hepatitis C virus (HCV). The HCV NS5B protein is the viral RdRp; compounds capable of interfering with the activity of this enzyme are thus expected to block viral replication.
Test for Inhibition of Hepatatis C Virus RdRp
WO96/37619 describes the production of recombinant HCV RdRp from insect cells infected with recombinant baculovirus encoding the enzyme. […] The reference describes a polymerisation assay using poly (A) as a template and oligo (U) as a primer. Incorporation of tritiated UTP is quantified by measuring acid-insoluble radioactivity. The present inventors have employed this assay to screen the various compounds described above as inhibitors of HCV RdRp and other virally encoded polymerases.
Incorporation of radioactive UMP was measured as follows. The standard reaction (100 μl) was carried out in a buffer containing 20 mM tris/HCl pH 7.5, 5 mM MgCl2, 1 mM DTT, 50 mM NaCl, 1 mM EDTA, 2 OU Rnasin (Promega), 0.05% Triton X-100, 1 μCi[^3H] UTP (40 Ci/mmol,NEN), 10 μM UTP and 10 μg/ml poly (A). Oligo (U)12 (1 μg/ml, Genset) was added as a primer. The final NSSB enzyme concentration was 20 nM. After 1 hour incubation at 22° C. the reaction was stopped by adding 100 μl of 20% TCA and applying samples to DE81 filters. The filters were washed thoroughly with 5% TCA containing 1M Na2HPO4/NaH2PO4, pH 7.0, rinsed with water and then ethanol, air dried, and the filter-bound radioactivity was measured in the scintillation counter. By carrying out the reaction in the presence of various concentrations of each of the compounds set out above it was possible to determine IC50 values for each compound with the formula: % residual activity=100/(1+[I]/IC50)^s where [I] is the inhibitor concentration and “s” is the slope of the inhibition curve. Test for Inhibition of Hepatitis B Virus Polymerase

[2] = target: reverse transcriptase of HIV (HIV-1 RT) (Human immunodeficiency virus type 1 group M subtype B, UniProt P03366); assay: Inhibition of HIV-1 reverse transcriptase ([3H]dTTP incorporation); details: read-out: HIV (IC50); Tables IXa-IXc; unit inferred; NA=not active as an inhibitor
Method: Test for Inhibition of Human Immunodeficiency Virus-1 Reverse Transcriptase
Analogous assays employed the reverse transcriptase of HIV (HIV -1RT) from Boehringer Mannhium.
Incorporation of radioactive dTTP was measured as follows. The standard reaction (100 μl) was carried out in a buffer containing 50 mM tris/HCl pH 8.2, 2.5 mM MgCl 2, 1 mM DTT, 80 mM KCl, 5 mM EGTA, 0.05% Triton X-100, 1 μCi[3H] dTTP (40 Ci/mmol, NEN), 10 μM […] and 10 μg/ml poly(A)/dT (from Pharmacia). The final HIV-1RT(enzyme concentration was 1 nM. After 1 hour incubation at 37° C. the reaction was stopped by adding 100 μl of 20% TCA and applying samples to DE81 filters. The filters were processed and IC50 values calculated as described above.

[3] = read-out: IC 50 (μM), HCV-polymerase, Tables I-VIII, 20 nM NS5B, 1 hour at 22° C.
[4] = read-out: HCV (IC50), Tables IXa-IXc, unit inferred

| Structure (SMILES) | IC50 [1, 3] [µM] | other results |
| --- | --- | --- |
| Cc1c(Cc2ccccc2)cccc1C(=O)CC(=O)C(=O)O | > 50 | – |
| Cc1cc(C(=O)CC(=O)C(=O)O)c(C)s1 | 27 | – |
| N#CCCCCOc1ccccc1C(=O)CC(=O)C(=O)O | 7.8 | – |
| C=CCc1cccc(C(=O)CC(=O)C(=O)O)c1OCCCC#N | 18 | – |
| N#CCCCOc1cc(O)cc(C(=O)CC(=O)C(=O)O)c1 | 0.9 | – |
| O=C(O)C(=O)CC(=O)c1cc(O)cc(O)c1 | 1.3 | – |
| N#Cc1cc(F)ccc1COc1cccc(C(=O)CC(=O)C(=O)O)c1 | 0.6 | IC50 [1, 4]: 0.6 µM; IC50 [2]: 50 µM |
| O=C(O)C(=O)CC(=O)c1ccc(-c2cc(C(F)(F)F)cc(C(F)(F)F)c2)o1 | – | IC50 [1, 4]: > 100 µM; IC50 [2]: 16 µM |
| CN(C)c1cccc2c(S(=O)(=O)N3CCCC(Cc4ccc(Cl)cc4)(C(=O)CC(=O)C(=O)O)C3)cccc12 (centres unmarked) | – | IC50 ([1]; read-out: IC 50 (μM), HCV-polymerase, Tables I-VIII, 20 nM NS5B, 1 hour at 22° C., tested form: dimethylamino group drawn protonated (N+)): 55 µM |
| Cc1coc(C)c1C(=O)CC(=O)C(=O)O | 47.5 | – |
| COc1cc(Cc2cc3ccccc3o2)cc(C(=O)CC(=O)C(=O)O)c1 | 20 | – |
